From article PMC3089636

Molecular target: T1, Fur (ferric uptake regulator) (UniProt A0A0H3NJ13)
T1 sequence (looked up, limits assumed): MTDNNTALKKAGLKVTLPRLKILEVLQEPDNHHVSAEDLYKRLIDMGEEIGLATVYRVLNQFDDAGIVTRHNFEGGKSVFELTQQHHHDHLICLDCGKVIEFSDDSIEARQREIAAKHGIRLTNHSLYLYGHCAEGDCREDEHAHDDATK
Assay: EMSA
Conditions: Mn2+, apparent Kd, protein for 50% complex; EMSA: 10 mM Bis-Tris/borate pH 7.5, 5% glycerol, 1 mM MgCl2, 40 mM KCl, 100 ug/ml BSA, 0.2 mg/ml salmon sperm DNA, 100 uM MnCl2, 20 nM probe, 10 min 37 C; recombinant protein; protein details: His tag of pET15b removed by thrombin; label: DIG; probe letters rebuilt from the primers and the genome

Sequence: GCAGCAGATTACCGCACAGGACACAGGGATTCCTGATGAAAATAGAATGAAAAGTGAGAAATAAAATCAATTTATTCTGTATAATGCGTCTCAACACATATTAAAAGAACCATCATCCCCATTGGGGCTTAAACTACTGTAGATAAATTACCCAAATTTGGGTTCTTTTGGTGTAACAATCAGACCATTGCCAACACACGCTAATAAAGAGCATTTACAACTCAGATTTTTTCAGTAGGATACCAGTAAGGAACATTAAAATAACATCAACAAAGGGATAATATGGAAAATGTAACCTTTGTAAGTAATAGTCATCAGCGTCCTGCCGCAGATAACT (double strand) [FrgA (PhilD)]
- Kd: 4.5 nM

For at least one entry, the source does not settle the construct or the ends of the probe. Tags and fusion partners may be left off the protein sequences shown.
